Tested on: consortium of bacteria: mixture of Pseudomonas aeruginosa, Klebsiella pneumoniae, Staphylococcus aureus, and Bacillus subtilis
Experiment: Growth inhibition assay (microtiter plate-based synergy assay)
Format: cell-based
Details: 24 h

4,5-dichloro-2-n-octylisothiazolin-3-one
% Inhibition of growth by DCOIT (DCOIT 0.19 mg/l alone): 0% | % Inhibition of growth by DCOIT (DCOIT 0.39 mg/l alone): 0% | % Inhibition of growth by DCOIT (DCOIT 0.78 mg/l alone): 26% | % Inhibition of growth by DCOIT (DCOIT 1.56 mg/l alone): 41% | % Inhibition of growth by DCOIT (DCOIT 3.13 mg/l alone): 37% | % Inhibition of growth by DCOIT (DCOIT 6.25 mg/l alone): 99% | % Inhibition of growth by DCOIT (DCOIT 12.5 mg/l alone): 99% | % Inhibition of growth by DCOIT (DCOIT 25.0 mg/l alone): 97% | I90 value (minimum concentration in which growth of the consortium is at least 90% less than controls) (single active alone): 6.25 mg/L

Source: patent publication US8754130B2, “Compositions of dibromomalonamide and their use as biocides” (Dow Global Technologies LLC, priority 2009, dated 2014)
